# Results deposited as PubChem BioAssay AID624099 (ICCB-Longwood, 2012).
# Test: 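Host factors E2 relies on to silence an HPV18 LCR reporter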 (primary screen)
# Cells: human C33A cervical carcinoma cells (HPV-negative) stably expressing BPV1 E2 and an HPV18 LCR luciferase reporter
# Reagent: siRNA pool against human genes, 40 nM
# Timing: 72 h
# Read-out: 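Per-well luciferase luminescence, z-scored on each plate against the plate mean and SD with control wells left out, then averaged across three replicate plates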
# Direction: mean z-score and z-score: higher = stronger reporter signal, weaker E2 silencing
# Rule for the call: 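Mean z ≥ 2 together with z ≥ 2 in two or more of the three replicates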
# Here is an unselected part of about 21,000 deposited reagents. 497 of them (2.4%) were called active. 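Higher z means weaker E2 silencing; only reporter increases were scored, and knock-downs that hurt cell survival may mask genuine repressor factors.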 Unmarked entries are inactive. The numbers tell different reagents against one gene apart.
The first 7 entries, to show the layout:
gene symbol,pool no.,mean z-score,"z-score, replicate A","z-score, replicate B","z-score, replicate C"
TTC23L,1,-0.74,-0.48,-0.86,-0.89
LOC389636 (retired record),1,1.48,1.28,1.56,1.58
OR3A4P,1,2.73 (active),2.67,3,2.51
MESD,1,1.06,1.22,1.28,0.69
LOC388794 (retired record),1,0.37,0.19,0.57,0.34
OLFM3,1,-1.08,-1.18,-0.99,-1.07
EIPR1,1,-1.23,-0.47,-1.62,-1.61

The listing, from the start:
gene symbol,pool no.,mean z-score,"z-score, replicate A","z-score, replicate B","z-score, replicate C"
TTC23L,1,-0.74,-0.48,-0.86,-0.89
LOC389636 (retired record),1,1.48,1.28,1.56,1.58
OR3A4P,1,2.73 (active),2.67,3,2.51
MESD,1,1.06,1.22,1.28,0.69
LOC388794 (retired record),1,0.37,0.19,0.57,0.34
OLFM3,1,-1.08,-1.18,-0.99,-1.07
EIPR1,1,-1.23,-0.47,-1.62,-1.61
APOBEC2,1,-0.49,-0.26,-0.44,-0.78
TOGARAM2,1,2.73 (active),2.63,2.66,2.88
LOC388476 (retired record),1,0.14,0.55,-0.02,-0.12
GGT1,1,-1.09,-0.62,-1.15,-1.49
CPEB2,1,-0.56,-0.17,-0.95,-0.55
DAD1,1,-1.61,-1.68,-1.45,-1.7
OLAH,1,0.24,0.61,-0.04,0.14
VCAN,1,0.28,0.07,0.48,0.3
NLRP13,1,0.64,0.67,0.61,0.63
LOC388972 (retired record),1,-0.15,-0.22,-0.27,0.03
ATXN1,1,-0.81,-0.49,-0.63,-1.31
BMP10,1,-0.33,-0.17,-0.48,-0.33
CFL2,1,0.71,0.69,0.54,0.89
LOC391767 (retired record),1,-0.41,-0.53,-0.56,-0.14
PTOV1,1,1.4,1.29,1.42,1.48
TENT4B,1,1.83,2,1.96,1.54
SPATS1,1,2.11,2.58,1.81,1.93
FLJ41327 (retired record),1,0.19,0.28,0.25,0.03
OR1L3,1,-0.75,-0.96,-0.63,-0.66
POU4F1,1,-0.98,-1.09,-0.97,-0.89
PRR23E,1,0.1,0.06,-0.17,0.39
SLC8A1,1,-0.53,-0.8,-0.44,-0.36
HSF5,1,1.09,0.67,1.21,1.38
PRAMEF5,1,0.57,0.63,0.7,0.38
SPANXC,1,0.88,0.79,0.84,1.03
PLA2G12B,1,-0.1,-0.01,-0.02,-0.27
BSDC1,1,1.48,1.29,1.55,1.59
PRKACB,1,-0.7,-0.83,-0.62,-0.66
LOC391711,1,0.56,0.89,-0.34,1.12
DACH1,1,3.65 (active),3.62,3.91,3.42
LOC389624 (retired record),1,0.68,0.42,0.67,0.95
GPT,1,0.46,0.43,0.44,0.5
TNFRSF14,1,-1.37,-1.32,-1.37,-1.42
PLCB3,1,0.28,0.96,-0.08,-0.03
DCAF13,1,-0.34,-0.24,-0.32,-0.46
STAT4,1,-0.98,-1.01,-1.02,-0.91
PXDC1,1,-0.23,0.09,-0.5,-0.27
CFHR2,1,-0.73,-0.66,-0.8,-0.73
HNRNPH1,1,-0.23,-0.4,-0.17,-0.12
CYP2A13,1,-0.59,-0.27,-0.63,-0.87
DENND2D,1,0.49,0.38,0.24,0.84
TMEM106A,1,-0.81,-0.76,-1.03,-0.64
GNB5,1,-0.29,-0.16,-0.35,-0.35
PI4KAP2,1,-0.52,-0.65,-0.25,-0.67
LRATD2,1,-0.02,0.26,-0.26,-0.05
PDIA2,1,-1.17,-1.49,-1.29,-0.71
CCDC12,1,0.3,0.11,0.48,0.3
CPED1,1,0.79,0.96,0.86,0.56
RPS10P3,1,-0.1,0.38,-0.54,-0.13
MPST,1,-0.94,-1.19,-0.86,-0.78
MEF2D,1,-0.56,-0.42,-0.65,-0.62
RPS29,1,-2.74,-2.68,-2.7,-2.84
LINC01019,1,0.69,0.76,0.54,0.76
ZBED5,1,-0.3,0.05,-0.02,-0.93
EFS,1,0.94,0.64,0.81,1.38
QTMAN,1,-1.03,-1.13,-0.98,-0.98
SIGLEC7,1,-0.89,-0.69,-1.1,-0.89
SHOX,1,0.05,-0.24,0.14,0.25
FSD1L,1,0.85,0.93,0.74,0.87
FSD1L,2,-0.11,-0.52,0.14,0.04
TECPR1,1,-0.67,-0.81,-0.44,-0.74
SLC33A1,1,0.71,0.75,0.71,0.65
CASP16P,1,-0.89,-0.79,-0.72,-1.16
CFAP251,1,0.94,0.97,1.03,0.82
BBS1,1,-0.53,-0.54,-0.4,-0.65
COL10A1,1,-0.54,-0.57,-0.58,-0.47
